From patent US20250339817A1, “A PROCESS FOR THE NITRIC OXIDE ABATEMENT THROUGH BIOLOGICAL TREATMENTS” (FUNDACIÓ EURECAT, priority 2022, published 2025)

System: biomass from the SBR
Test: Long-term biodegradability test (ultimate BOD, OECD 301 F)

SMILES	Degradation in the 28 days of the test [%]
CC(CC(C)(C)C)CC(C)(C)CC(C)(C)C (centres unmarked) [HNO, 2,2,4,4,6,8,8-heptamethylnonane]	1
CCCCCCCCCCCCCCCC [HEX, n-hexadecane]	8
